Laboratory results taken from patent publication US20260250325A1, “Antiviral Polypeptide Membrane Fusion Inhibitor, and Preparation Method and Application Thereof” (priority 2025, published 2026).
Where a SMILES comes first, the peptide text is derived from it. The star is where a group is joined. Succinyl(4-O-cholesteryl) = CC(C)CCC[C@@H](C)[C@H]1CC[C@H]2[C@@H]3CC=C4C[C@@H](OC(=O)CCC(=O)*)CC[C@]4(C)[C@H]3CC[C@]12C

The molecules below were run on RSV A long virus strain. Conditions: CC50/IC50, HEp-2 cells.
Format: cell-based
How it was run: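 Plaque reduction in HEp-2 cells: virus (100 PFU/well) and serially diluted compound (8 concentrations) mixed 1 h, adsorbed 2 h, then overlaid with 0.8% CMC medium plus compound for 1 day at 37 °C. Spots counted after anti-RSV immunostaining; IC50 from normalized inhibition, CC50 from viability data.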

Molecule	Safety index (SI)
Ac-LVKKIDEFDASISQVNEKINQSLEEIRKSDELLHNVGSGSGK(Succinyl(4-O-cholesteryl))-NH2 [Compound 29]	778
CC[C@H](C)[C@H](NC(=O)[C@H](CO)NC(=O)[C@H](C)NC(=O)[C@H](CC(=O)O)NC(=O)[C@H](Cc1ccccc1)NC(C)=O)C(=O)N[C@@H](CCC(=O)O)C(=O)N[C@@H](CCC(=O)O)C(=O)N[C@H](C(=O)N[C@@H](CC(N)=O)C(=O)N[C@@H](CCCNC(=N)N)C(=O)N[C@@H](CCCNC(=N)N)C(=O)N[C@H](C(=O)N[C@@H](CCC(=O)O)C(=O)N[C@@H](CCC(=O)O)C(=O)N[C@@H](CO)C(=O)N[C@@H](CC(C)C)C(=O)N[C@@H](CCCNC(=N)N)C(=O)N[C@@H](CCCNC(=N)N)C(=O)N[C@H](C(=O)N[C@@H](CCC(=O)O)C(=O)N[C@@H](CCC(=O)O)C(=O)N[C@@H](CO)C(=O)N[C@@H](CC(=O)O)C(=O)N[C@@H](CCCNC(=N)N)C(=O)N[C@@H](CCCNC(=N)N)C(=O)N[C@@H](CC(C)C)C(=O)N[C@@H](CCC(=O)O)C(=O)N[C@H](C(=O)N[C@@H](CC(N)=O)C(=O)N[C@@H](CCCCN)C(=O)N[C@@H](CCCCN)C(=O)N[C@@H](C)C(N)=O)C(C)C)[C@@H](C)CC)[C@@H](C)CC)C(C)C [Compound 1] (Ac-FDASIEEVNRRIEESLRRIEESDRRLEVNKKA-NH2)	>5.88
Ac-FDEEISQVNEKINQSLAFIRKSDELLHNVNAGKSTTEAAAKK(Succinyl(4-O-cholesteryl))-NH2 [Compound 26]	7843
CC[C@H](C)[C@H](NC(=O)[C@H](CCCCN)NC(=O)[C@H](CCCCN)NC(=O)[C@H](CC(C)C)NC(=O)[C@H](CO)NC(=O)[C@H](CCC(=O)O)NC(=O)[C@H](CCC(=O)O)NC(=O)[C@@H](NC(=O)[C@H](CCCCN)NC(=O)[C@H](CCCCN)NC(=O)[C@H](CC(N)=O)NC(=O)[C@@H](NC(=O)[C@H](CCC(=O)O)NC(=O)[C@H](CCC(=O)O)NC(=O)[C@@H](NC(=O)[C@H](CCCCN)NC(=O)[C@H](CCCCN)NC(=O)[C@H](CCCCN)NC(=O)[C@H](CC(=O)O)NC(=O)[C@H](Cc1ccccc1)NC(=O)[C@H](CCC(=O)O)NC(=O)[C@H](CC(=O)O)NC(C)=O)[C@@H](C)CC)C(C)C)[C@@H](C)CC)C(=O)N[C@@H](CCC(=O)O)C(=O)N[C@@H](CCC(=O)O)C(=O)N[C@@H](CO)C(=O)N[C@@H](CC(=O)O)C(=O)N[C@@H](CCCCN)C(=O)N[C@@H](CCCCN)C(=O)N[C@@H](CC(C)C)C(=O)N[C@@H](CCC(=O)O)C(=O)N[C@@H](CCC(=O)O)C(=O)N[C@H](C(=O)N[C@@H](CCC(=O)O)C(=O)N[C@@H](C)C(=O)N[C@@H](C)C(=O)N[C@@H](C)C(=O)N[C@@H](CCCCN)C(=O)N[C@@H](CCCCNC(=O)CCC(=O)O[C@H]1CC[C@@]2(C)C(=CC[C@H]3[C@@H]4CC[C@H]([C@H](C)CCCC(C)C)[C@@]4(C)CC[C@@H]32)C1)C(N)=O)C(C)C [Compound 22] (Ac-DEFDKKKIEEVNKKIEESLKKIEESDKKLEEVEAAAKK(Succinyl(4-O-cholesteryl))-NH2)	324
CC[C@H](C)[C@H](NC(=O)[C@H](CO)NC(=O)[C@H](C)NC(=O)[C@H](CC(=O)O)NC(=O)[C@H](Cc1ccccc1)NC(=O)[C@H](CCC(=O)O)NC(=O)[C@H](CC(=O)O)NC(=O)[C@H](Cc1c[nH]c2ccccc12)NC(C)=O)C(=O)N[C@@H](CO)C(=O)N[C@@H](CCC(N)=O)C(=O)N[C@H](C(=O)N[C@@H](CC(N)=O)C(=O)N[C@@H](CCC(=O)O)C(=O)N[C@@H](CCCCN)C(=O)N[C@H](C(=O)N[C@@H](CC(N)=O)C(=O)N[C@@H](CCC(N)=O)C(=O)N[C@@H](CO)C(=O)N[C@@H](CC(C)C)C(=O)N[C@@H](CCC(=O)O)C(=O)N[C@@H](CCC(=O)O)C(=O)N[C@H](C(=O)N[C@@H](CCCNC(=N)N)C(=O)N[C@@H](CCCCN)C(=O)N[C@@H](CO)C(=O)N[C@@H](CC(=O)O)C(=O)N[C@@H](CCC(=O)O)C(=O)N[C@@H](CC(C)C)C(=O)N[C@@H](CC(C)C)C(=O)N[C@@H](Cc1c[nH]cn1)C(=O)N[C@@H](CC(N)=O)C(=O)N[C@@H](CCC(=O)O)C(=O)N[C@@H](C)C(=O)N[C@@H](C)C(=O)N[C@@H](C)C(=O)N[C@@H](CCCCN)C(=O)N[C@@H](CCCCNC(=O)CCC(=O)O[C@H]1CC[C@@]2(C)C(=CC[C@H]3[C@@H]4CC[C@H]([C@H](C)CCCC(C)C)[C@@]4(C)CC[C@@H]32)C1)C(N)=O)[C@@H](C)CC)[C@@H](C)CC)C(C)C [Compound 45] (Ac-WDEFDASISQVNEKINQSLEEIRKSDELLHNEAAAKK(Succinyl(4-O-cholesteryl))-NH2)	815.34
Ac-SLEQVNEKINQSLAFIRKSDEINQSDEEVNKSDELLEAAAKK-NH2 [Compound 50]	2160
CC[C@H](C)[C@H](NC(=O)[C@H](CO)NC(=O)[C@H](C)NC(=O)[C@H](CC(=O)O)NC(=O)[C@H](Cc1ccccc1)NC(C)=O)C(=O)N[C@@H](CCC(=O)O)C(=O)N[C@@H](CCC(=O)O)C(=O)N[C@H](C(=O)N[C@@H](CC(N)=O)C(=O)N[C@@H](CCCNC(=N)N)C(=O)N[C@@H](CCCNC(=N)N)C(=O)N[C@H](C(=O)N[C@@H](CCC(=O)O)C(=O)N[C@@H](CCC(=O)O)C(=O)N[C@@H](CO)C(=O)N[C@@H](CC(C)C)C(=O)N[C@@H](CCCNC(=N)N)C(=O)N[C@@H](CCCNC(=N)N)C(=O)N[C@H](C(=O)N[C@@H](CCC(=O)O)C(=O)N[C@@H](CCC(=O)O)C(=O)N[C@@H](CO)C(=O)N[C@@H](CC(=O)O)C(=O)N[C@@H](CCCNC(=N)N)C(=O)N[C@@H](CCCNC(=N)N)C(=O)N[C@@H](CC(C)C)C(=O)N[C@@H](CCC(=O)O)C(=O)N[C@@H](CCC(=O)O)C(=O)N[C@H](C(=O)N[C@@H](CC(N)=O)C(=O)N[C@@H](C)C(=O)N[C@@H](CCC(=O)O)C(=O)N[C@@H](C)C(=O)N[C@@H](C)C(=O)N[C@@H](C)C(=O)N[C@@H](CCCCN)C(=O)N[C@@H](CCCCNC(=O)CCC(=O)O[C@H]1CC[C@@]2(C)C(=CC[C@H]3[C@@H]4CC[C@H]([C@H](C)CCCC(C)C)[C@@]4(C)CC[C@@H]32)C1)C(N)=O)C(C)C)[C@@H](C)CC)[C@@H](C)CC)C(C)C [Compound 42] (Ac-FDASIEEVNRRIEESLRRIEESDRRLEEVNAEAAAKK(Succinyl(4-O-cholesteryl))-NH2)	314.06
CC[C@H](C)[C@H](NC(=O)[C@H](CCCCN)NC(=O)[C@H](CCCCN)NC(=O)[C@H](CC(C)C)NC(=O)[C@H](CO)NC(=O)[C@H](CCC(=O)O)NC(=O)[C@H](CCC(=O)O)NC(=O)[C@@H](NC(=O)[C@H](CCCCN)NC(=O)[C@H](CCCCN)NC(=O)[C@H](CC(N)=O)NC(=O)[C@@H](NC(=O)[C@H](CCC(=O)O)NC(=O)[C@H](CCC(=O)O)NC(=O)[C@@H](NC(=O)[C@H](CCCCN)NC(=O)[C@H](CCCCN)NC(=O)[C@H](CC(=O)O)NC(=O)[C@H](Cc1ccccc1)NC(=O)[C@H](CCC(=O)O)NC(=O)[C@H](CC(=O)O)NC(=O)[C@H](Cc1c[nH]c2ccccc12)NC(C)=O)[C@@H](C)CC)C(C)C)[C@@H](C)CC)C(=O)N[C@@H](CCC(=O)O)C(=O)N[C@@H](CCC(=O)O)C(=O)N[C@@H](CO)C(=O)N[C@@H](CC(=O)O)C(=O)N[C@@H](CCCCN)C(=O)N[C@@H](CCCCN)C(=O)N[C@@H](CC(C)C)C(=O)N[C@@H](CCC(=O)O)C(=O)N[C@@H](CCC(=O)O)C(=O)N[C@H](C(=O)N[C@@H](CC(N)=O)C(=O)N[C@@H](CCC(=O)O)C(=O)N[C@@H](C)C(=O)N[C@@H](C)C(=O)N[C@@H](C)C(=O)N[C@@H](CCCCN)C(=O)N[C@@H](CCCCNC(=O)CCC(=O)O[C@H]1CC[C@@]2(C)C(=CC[C@H]3[C@@H]4CC[C@H]([C@H](C)CCCC(C)C)[C@@]4(C)CC[C@@H]32)C1)C(N)=O)C(C)C [Compound 41] (Ac-WDEFDKKIEEVNKKIEESLKKIEESDKKLEEVNEAAAKK(Succinyl(4-O-cholesteryl))-NH2)	1144.98
Ac-WDEFDASISQVNEKINQSLEEIRKSDELLHNVNAGLGSGSGK(Succinyl(4-O-cholesteryl))-NH2 [Compound 27]	717
CC[C@H](C)[C@H](NC(=O)[C@H](CCCCN)NC(=O)[C@H](CCCCN)NC(=O)[C@H](CC(C)C)NC(=O)[C@H](CO)NC(=O)[C@H](CCC(=O)O)NC(=O)[C@H](CCC(=O)O)NC(=O)[C@@H](NC(=O)[C@H](CCCCN)NC(=O)[C@H](CCCCN)NC(=O)[C@H](CC(N)=O)NC(=O)[C@@H](NC(=O)[C@H](CCC(=O)O)NC(=O)[C@H](CCC(=O)O)NC(=O)[C@@H](NC(=O)[C@H](CCCCN)NC(=O)[C@H](CCCCN)NC(=O)[C@H](CC(=O)O)NC(=O)[C@H](Cc1ccccc1)NC(=O)[C@H](CCC(=O)O)NC(=O)[C@H](CC(=O)O)NC(=O)[C@H](Cc1c[nH]c2ccccc12)NC(C)=O)[C@@H](C)CC)C(C)C)[C@@H](C)CC)C(=O)N[C@@H](CCC(=O)O)C(=O)N[C@@H](CCC(=O)O)C(=O)N[C@@H](CO)C(=O)N[C@@H](CC(=O)O)C(=O)N[C@@H](CCCCN)C(=O)N[C@@H](CCCCN)C(=O)N[C@@H](CC(C)C)C(=O)N[C@@H](CCC(=O)O)C(=O)N[C@@H](CCC(=O)O)C(=O)N[C@H](C(=O)N[C@@H](CC(N)=O)C(=O)N[C@@H](C)C(=O)N[C@@H](CCC(=O)O)C(=O)N[C@@H](C)C(=O)N[C@@H](C)C(=O)N[C@@H](C)C(=O)N[C@@H](CCCCN)C(=O)N[C@@H](CCCCNC(=O)CCC(=O)O[C@H]1CC[C@@]2(C)C(=CC[C@H]3[C@@H]4CC[C@H]([C@H](C)CCCC(C)C)[C@@]4(C)CC[C@@H]32)C1)C(N)=O)C(C)C [Compound 40] (Ac-WDEFDKKIEEVNKKIEESLKKIEESDKKLEEVNAEAAAKK(Succinyl(4-O-cholesteryl))-NH2)	1119.21
